A: 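Phenotypic screen: M. tuberculosis growth, glucose 7H9 medium, 3 days; the read-out is not stated. Concentration: 50 µM. Direction is inferred from retests: higher values go with more growth inhibition. Size under these conditions: about 69,000 compounds, about 760 of them at 50% or above in at least one test.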
B: 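Whole-cell growth test on Mycobacterium tuberculosis, read after 4 days in a medium based on cholesterol and the lipid DPPC; the read-out is not stated. Concentration: 50 µM. Higher reads as more growth inhibition (inferred: compounds with an IC50 in retests scored well above the rest). Size under these conditions: about 69,000 compounds, about 370 of them at 50% or above in at least one test.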

Each number is a percent effect as filed. The record does not define 0% and 100%; most values in the screen are far below 50% and negative numbers occur (in some assays of this library far below -100). The entries come from a sample that favours strong results. Two or more numbers in one place are separate tests of the same structure; such repeats can differ widely. A dash means the value is not listed here; it may have been measured.

Result for CCN1CC(COC(=O)c2ccc(N(C)C)cc2F)CC1=O (configuration not stated) was A: 4.26%.
Result for COC[C@H]1CCCN1c1nccc(-c2cnn(-c3ccccc3C)c2)n1 was A: 57.19% and 50.56%.
Result for CC(NC(=O)CNc1cc2c(cc1Cl)NC(=O)CO2)c1ccco1 (configuration not stated) was A: -23.33%; B: -33.75%.
Result for NCC1CCCN(c2nc(-c3ccccc3)nc3c2CCNCC3)C1 (configuration not stated) was A: 56.71%; B: 52.31% and 31.75%.
Result for O=C1CC2(CCN(Cc3ncc[nH]3)CC2)CN1Cc1ccc(Cl)cc1 was A: 26.93%.
Result for Fc1ccc(Cn2ncc3c2CN(c2noc(C4CC4)n2)C3)cc1 was B: 59.35% and 22.95%.
Result for CN(Cc1cc(F)ccc1F)CC(C)(CO)CO was A: -9.221%.
Result for O=C(c1cnn2c(-c3ccco3)ccnc12)N1CCCCCC1 was A: 33.38%.
Result for COc1cc(CNCCn2cc(C)cn2)cc2c1OCCO2 was A: 24.13%; B: 13.04%.
Result for Cc1cc(C)n(C2=NC(NCCC(C)C)c3c(sc4c3CCCC4)N2)n1 (configuration not stated) was A: 4.242%.
Result for CN(Cc1cnn(C)c1)C(=O)c1ccc(=O)n(C)n1 was A: -4.659% and 61.36%.
Result for Cc1nnc(-c2cccc(N3CCC(NC4CCSC4)CC3)c2)s1 (configuration not stated) was A: 4.468% and 4.825%.
Result for Cc1nonc1NC(=O)CCn1cc(Br)ccc1=O was A: 128.9% and 5.98%.
Result for CC(Cn1cccn1)NC(=O)c1cccs1 (configuration not stated) was A: -30.25%; B: -17.56%.
Result for COC(=O)CCN(C)Cc1cc(Br)cs1 was B: 21.66%.
Result for O=C(NCCNc1ccccn1)NC1CCCC1 was A: 1.314% and 3.309%; B: -15.19%.
Result for Cn1ccnc1-c1ccc(NCCC2COc3ccccc3O2)nn1 (configuration not stated) was A: 56.79%.
Result for O=C(O)[C@H]1C[C@H](C(=O)NC2CC2)CN(Cc2ccc(-c3cc[nH]n3)s2)C1 was A: -8.396% and 5.044%.
Result for CN(C)c1ccc(-c2noc([C@@H]3CCCN3)n2)cn1 was A: -28.65% and -4.226%.
Result for COc1ccc(-c2noc(C3CC(C(C)C)=NO3)n2)cc1 (configuration not stated) was A: 39.44%.
Result for O=S(=O)(NCCNc1cc(-n2cccc2)ncn1)c1cccs1 was A: 38.3% and 19.77%; B: 25.84%.
Result for OC(CNC1CCOCC1)c1ccc(Cl)c(F)c1 (configuration not stated) was A: 18.74%.
Result for O=C(CC1CCc2ccccc21)NC1(C(=O)O)CCCC1 (configuration not stated) was B: 4.767%.
Result for [H][C@@]12C[C@@H](OC)C[C@]1([H])CN(C(=O)c1ccc(C)s1)C2 was A: 19.01%; B: 38.84% and 69.12%.
Result for COCc1noc(-c2nn(-c3ccc(F)cc3)c3c2CCC3)n1 was A: 53.84%.
Result for CC1CCN(S(=O)(=O)NC(C)Cc2ccco2)CC1 (configuration not stated) was B: 40.23%.
Result for Cc1cc(=O)[nH]c(-n2nc(C3CC3)cc2N)n1 was A: 78.46%; B: 43.31%.
Result for O=C(NCCC(O)c1cccs1)c1ccco1 (configuration not stated) was A: 4.343%.
Result for COc1cccc(O)c1CN1CCCC(Nc2cccc(F)c2)C1 (configuration not stated) was A: 2.563% and 20.21%; B: 18.55%.
Result for Clc1cc(NCc2ccncc2)nc2[nH]ccc12 was A: -8.731%.
Result for CN1CCCC(c2cncc(-c3cccc(C(F)(F)F)c3)n2)C1 (configuration not stated) was A: 31.42%; B: 35.89%.
Result for CCN(CCn1c(=O)oc2ccccc21)CC1CCOCC1 was B: -10.35% and -1.764%.
Result for Cc1nc(-c2cccc(N3CCC(N4CCCC4)CC3)c2)cs1 was A: 66%.
Result for COc1cc(NCC(=O)NC(C)(C#N)C(C)C)cc(OC)c1OC (configuration not stated) was A: -12.55%; B: 1.375%.
Result for CC(C)c1ocnc1C(=O)N1CC(=O)Nc2cccnc21 was A: 0.4741% and -8.9%; B: -1.342%.
Result for Cc1nnc(CN(Cc2ccccc2Br)C2CC2)o1 was A: 33.74% and 60.33%.
Result for CCCOCCNc1nc2c(s1)c(C)nn2C was A: -3.24% and 1.09%.
Result for CO[C@@H]1CCN(C2CCOCC2)C[C@@H]1Cc1ccccc1.O=C(O)C(F)(F)F was A: -43.87%.
Result for O=C(CNC(=O)C1CC1)NCc1ccc(Cl)s1 was A: 15.54%.
Result for CN1CCN(Cc2noc(CCc3nc(-c4ccccc4)no3)n2)CC1 was A: -33.48%.
Result for CCc1nnc(CN(C)Cc2nc(-c3ccccc3Cl)oc2C)o1 was B: -5.626%.
Result for CCOc1ccnc(N[C@@H](Cc2ccccc2)C(N)=O)n1 was B: -1.984% and 77.23%.
Result for Cc1ccc(C(=O)NCCCNc2ccc(C(F)(F)F)cn2)cc1 was A: 3.672%.
Result for CN1CCC(N(C)CCC(=O)N2CCN(Cc3cccc(F)c3)CC2)C1 (configuration not stated) was A: -12.45%.
Result for Cc1noc(C)c1CNCc1nn(-c2ccccc2)c2c1CCC2 was A: 3.476%.
Result for CC/C=C(/C)C(=O)NS(=O)(=O)c1ccc(C#N)c(C(F)(F)F)c1 was A: -15.64%.
Result for O=S(=O)(Cc1ccccc1)CC(O)Cn1cccn1 (configuration not stated) was A: -4.567%.

The last 3 entries again:

| SMILES | A | B |
|---|---|---|
| `Cc1noc(C)c1CNCc1nn(-c2ccccc2)c2c1CCC2` | 3.476 | - |
| `CC/C=C(/C)C(=O)NS(=O)(=O)c1ccc(C#N)c(C(F)(F)F)c1` | -15.64 | - |
| `O=S(=O)(Cc1ccccc1)CC(O)Cn1cccn1` (configuration not stated) | -4.567 | - |

Measurements from “University of Dundee, Small-Polar-MMV Screening Library” (2021), ChEMBL document CHEMBL3988442.